ChEMBL document CHEMBL3813673, “Bistacrine derivatives as new potent antimalarials” (Bioorg Med Chem, 2016)

Key:
[1] = Selectivity index, ratio of IC50 for mouse J774.1 cells to IC50 for chloroquine-sensitive ring-stage Plasmodium falciparum 3D7
Plasmodium falciparum [2] = assay: Antimalarial activity against chloroquine-sensitive ring-stage Plasmodium falciparum 3D7 assessed as parasite viability after 72 hrs by malstat assay
Plasmodium falciparum [3] = assay: Antimalarial activity against chloroquine-resistant Plasmodium falciparum Dd2 assessed as parasite viability after 72 hrs by malstat assay
[4] = Selectivity index, ratio of IC50 for mouse J774.1 cells to IC50 for ring-stage Plasmodium falciparum Dd2
[5] = Cytotoxicity against mouse J774.1 cells after 24 hrs by AlamarBlue based cytotoxicity assay; type: cell-based
[6] = Reversible inhibition of recombinant Plasmodium falciparum falcipain 2 assessed as hydrolysis of Cbz-Phe-Arg-AMC measured after 10 mins by spectrofluorometric method

Compound	Ratio IC50 [1]	IC50 (Plasmodium falciparum [2]) [nM]	IC50 (Plasmodium falciparum [3]) [nM]	Ratio IC50 [4]	IC50 [5] [nM]	IC50 [6] [nM]
c1ccc2c(NCCCNc3c4c(nc5ccccc35)CCCC4)c3c(nc2c1)CCCC3	86.9	490	3990	10.7	–	–
c1ccc2c(NCCNc3c4c(nc5ccccc35)CCCC4)c3c(nc2c1)CCCC3	113	400	6110	7.4	–	–
c1ccc2c(NCCCCNc3c4c(nc5ccccc35)CCCC4)c3c(nc2c1)CCCC3	48.8	170	1390	5.97	8300	–
c1ccc2c(NCCCCCCCCCNc3c4c(nc5ccccc35)CCCC4)c3c(nc2c1)CCCC3	36	50	150	12	1800	11500
